From ChEMBL document CHEMBL3988442, “University of Dundee, Small-Polar-MMV Screening Library” (2021).

Mtb cholesterol medium: 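Phenotypic screen: M. tuberculosis growth, cholesterol and DPPC medium, 4 days; the read-out is not stated. Compounds at 500 µM. Direction is inferred from retests: higher values go with more growth inhibition. About 18,000 compounds were tested under these conditions; 5% (about 900) showed 50% or more at least once.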
Mtb glucose medium: 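Growth of Mycobacterium tuberculosis over 3 days (7H9 medium with glucose and tyloxapol); the read-out is not stated. Compounds at 500 µM. Higher reads as more growth inhibition (inferred: compounds with an IC50 in retests scored well above the rest). Size under these conditions: about 18,000 compounds, about 1,400 of them at 50% or above in at least one test.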

Values are the deposited “Percent Effect”, in %. The record does not define 0% and 100%; most values in the screen are far below 50% and negative numbers occur (in some assays of this library far below -100). This is part of a subset picked to be rich in strong results. A dash means the value is not listed here; it may have been measured.

Compound	Mtb cholesterol medium	Mtb glucose medium
COc1ccc(C(C)=O)cc1CC(=O)Nc1nncs1	-	1.189
COc1cc(C(=O)NCC(=O)c2ccco2)ccc1F	43.49	35.21
Cc1cc(C(=O)Nc2cc(C(F)(F)F)c[nH]c2=O)no1	-	6.65
CC(C)(CNC(=O)NCCc1cccc(F)c1)C(N)=O	-	25.91
CC(C)NC(=O)NCCN1CCNCC1	-	11.25
NCc1nc(-c2cccc(Cl)c2)no1	54.62	57.25
CC(C)(C)OC(=O)N1CCN(C(CN)C(F)(F)F)CC1 (stereo unspecified)	-	30.47
CCn1cc(OCCCS(=O)(=O)C(C)C)cn1	-	-4.822
CC(=O)N1CCN(Cc2cccc(N)n2)CC1	-	12.88
CNC(=O)Cn1cc(-c2ccnc3c2ccn3C)cn1	-	2.616
c1cnc(N2CCCC2)c(NC2CCNCC2)c1	-	-8.25
COCCOC1CCN(c2cc(C)ccn2)CC1	43.31	44.44
CN(C)C(=O)c1ccc(CN)cc1	-6.061	-
COC(=O)CCCC(=O)Nc1ncccc1Cl	-	-7.308
CN(C)CCCNCC(O)COc1ccccc1 (stereo unspecified)	25.68	-
CC(C)OCCC(=O)N1CCC(O)(C(F)(F)F)CC1	35.77	-
CCn1nc(C)cc1C(=O)N1CCN=C1SC	-	4.135
CC(CNC(=O)c1cnccn1)N1CCCC1 (stereo unspecified)	-	11.14
O=C(NCC1COCCO1)c1cnc2ccccc2c1 (stereo unspecified)	31.3	50.44
CNC(=O)N1CCN(c2ccc(Cl)cn2)CC1	-18.01	-11.47
CN(Cc1ccc(Br)cc1)C(=O)CSc1nc(N)n[nH]1	46.68	68.21
Cc1nc(C)c(C(=O)N[C@@H]2CCNC[C@H]2O)s1	-2.928	-
CC1CNC(=O)CCN1Cc1ccc(S(C)(=O)=O)cc1 (stereo unspecified)	-	12.6
NC1CCCc2occc21 (stereo unspecified)	53.47	63.68
CCN(CC)C(=O)C1Cn2cccc2C(=O)N1C (stereo unspecified)	8.285	-
CCCc1noc(CN2CCN(CC(O)CC)CC2)n1 (stereo unspecified)	4.224	-
O=C(Nc1cn[nH]c1)Nc1cccc(OCC(F)F)n1	-	10.9
OCCC1(O)CCOc2ccccc21 (stereo unspecified)	-11.39	-
CCN(CC)C(=O)Cn1nc(C)c(C#N)c1N	3.922	2.624
O=C(c1cnsn1)N1CCN(Cc2ccc(Cl)s2)CC1	-18.23	86.7
c1coc(-c2nc(N3CCOCC3)no2)c1	-14.78	-
CN(C)S(=O)(=O)N1CCCC1COc1ccccc1 (stereo unspecified)	93.42	81.47
NCCc1ccc(C(F)(F)F)cn1	23.18	28.12
N#Cc1ncn(CC(N)=O)n1	-	4.972
Cc1cncc(NCc2ncc[nH]2)c1	-4.441	-
CC(C)N1CCN(C(C)C(=O)NC2CC2)CC1 (stereo unspecified)	-	-0.7931
Cc1cnc(C#N)cc1Cl	-	1.723
COCCOCCn1cc(F)ccc1=O	-	-9.678
COCCNCCNC(=O)c1ccc2c(c1)nnn2C	-	-2.651
COCC(C)(C#N)NC(=O)c1ccc(C)cc1F (stereo unspecified)	-	-8.881
O=C1NCCOc2ccc(Br)cc21	-12.24	-
c1ccc2c(CC3COCCN3)c[nH]c2c1 (stereo unspecified)	-	11.14

5 of the entries, repeated:

- N#Cc1ncn(CC(N)=O)n1 : Mtb glucose medium: 4.972%
- Cc1cncc(NCc2ncc[nH]2)c1 : Mtb cholesterol medium: -4.441%
- CNC(=O)N1CCN(c2ccc(Cl)cn2)CC1 : Mtb cholesterol medium: -18.01%; Mtb glucose medium: -11.47%
- c1coc(-c2nc(N3CCOCC3)no2)c1 : Mtb cholesterol medium: -14.78%
- Cc1cnc(C#N)cc1Cl : Mtb glucose medium: 1.723%